PubChem BioAssay AID624099 – ICCB-Longwood – 2012
Here is a random part of about 21,000 reagents. Over the whole deposit, 497 (2.4%) are marked active. 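Higher z means weaker E2 silencing; only reporter increases were scored, and knock-downs that hurt cell survival may mask genuine repressor factors.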 No sequences are given here.

Aim: 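Human genes that papillomavirus E2 requires to repress the HPV18 LCR promoter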 (primary screen)
Cells: human C33A cervical carcinoma cells (HPV-negative) stably expressing BPV1 E2 and an HPV18 LCR luciferase reporter
Reagent: siRNA pool against human genes, 40 nM
Duration: 72 h
Measurement: 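HPV18 LCR reporter light per well, converted to plate-wise z-scores that exclude control wells, and averaged over triplicate plates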
Reading the numbers: mean z-score and z-score: higher = stronger reporter signal, weaker E2 silencing
Hit rule: 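Mean z ≥ 2 together with z ≥ 2 in two or more of the three replicates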

With PARD3 (GeneID 56288) [SID134319635], how do the results read?
mean z-score: -1.07; z-score, replicate A: -0.8; z-score, replicate B: -1.17; z-score, replicate C: -1.25; call: inactive

What is on record for TCF7L2 (GeneID 6934) [SID134310094]?
mean z-score: 0.85; z-score, replicate A: 0.76; z-score, replicate B: 1.02; z-score, replicate C: 0.76; call: inactive

What is on record for SLC6A15 (GeneID 55117) [SID134312421]?
mean z-score: -1.27; z-score, replicate A: -1.34; z-score, replicate B: -1.28; z-score, replicate C: -1.2; call: inactive

With FBXL2 (GeneID 25827) [SID134317782], how do the results read?
mean z-score: 1.93; z-score, replicate A: 1.64; z-score, replicate B: 2.06; z-score, replicate C: 2.08; call: inactive

How did the screen score VCF1 (GeneID 84923) [SID134319081]?
mean z-score: -1.24; z-score, replicate A: -1.45; z-score, replicate B: -1.3; z-score, replicate C: -0.96; call: inactive

What did the screen give for AKAP8 (GeneID 10270) [SID56479229]?
mean z-score: 1.12; z-score, replicate A: 1.03; z-score, replicate B: 0.89; z-score, replicate C: 1.44; call: inactive

With P2RX2 (GeneID 22953) [SID134311701], how do the results read?
mean z-score: 0.93; z-score, replicate A: 0.93; z-score, replicate B: 0.94; z-score, replicate C: 0.92; call: inactive

For WDPCP (GeneID 51057) [SID134324574], what does the deposit list?
mean z-score: 1.28; z-score, replicate A: 0.29; z-score, replicate B: 1.81; z-score, replicate C: 1.73; call: inactive

For ACACA (GeneID 31) [SID134310515], what was measured?
mean z-score: -0.76; z-score, replicate A: -0.1; z-score, replicate B: -0.9; z-score, replicate C: -1.27; call: inactive

For KLHL14 (GeneID 57565) [SID134325686], what was measured?
mean z-score: 2.37; z-score, replicate A: 2.8; z-score, replicate B: 2.06; z-score, replicate C: 2.25; call: active

For ZNF688 (GeneID 146542) [SID134312260], what does the deposit list?
mean z-score: 1.38; z-score, replicate A: 0.89; z-score, replicate B: 1.7; z-score, replicate C: 1.54; call: inactive

What is on record for OGFRL1 (GeneID 79627) [SID134322020]?
mean z-score: -0.67; z-score, replicate A: -0.77; z-score, replicate B: -0.63; z-score, replicate C: -0.6; call: inactive

How did the screen score ACADM (GeneID 34) [SID134313037]?
mean z-score: 0.62; z-score, replicate A: 0.9; z-score, replicate B: 0.31; z-score, replicate C: 0.66; call: inactive

In a second layout: results already given.
gene knocked down	PubChem SID	mean z-score	z-score, replicate A	z-score, replicate B	z-score, replicate C	call
P2RX2 (GeneID 22953)	SID134311701	0.93	0.93	0.94	0.92	inactive
WDPCP (GeneID 51057)	SID134324574	1.28	0.29	1.81	1.73	inactive
ACACA (GeneID 31)	SID134310515	-0.76	-0.1	-0.9	-1.27	inactive

More results follow.
With USH1G (GeneID 124590) [SID134323074], what does the deposit list?
mean z-score: -1.03; z-score, replicate A: -0.99; z-score, replicate B: -1.07; z-score, replicate C: -1.03; call: inactive

For PRDX5 (GeneID 25824) [SID134322911], what does the deposit list?
mean z-score: 0.18; z-score, replicate A: 0.28; z-score, replicate B: 0.03; z-score, replicate C: 0.23; call: inactive

What did the screen give for NES (GeneID 10763) [SID134328914]?
mean z-score: -0.45; z-score, replicate A: -0.55; z-score, replicate B: -0.42; z-score, replicate C: -0.37; call: inactive

What did the screen give for ATP6V1G1 (GeneID 9550) [SID134317826]?
mean z-score: 0.47; z-score, replicate A: 0.2; z-score, replicate B: 0.46; z-score, replicate C: 0.74; call: inactive

For PAMR1 (GeneID 25891) [SID134318176], how do the results read?
mean z-score: 0.48; z-score, replicate A: 0.14; z-score, replicate B: 0.5; z-score, replicate C: 0.81; call: inactive

Which result is listed for REL (GeneID 5966) [SID134310622]?
mean z-score: 0.35; z-score, replicate A: 0.45; z-score, replicate B: 0.39; z-score, replicate C: 0.21; call: inactive

For POLR2K (GeneID 5440) [SID134316286], what does the deposit list?
mean z-score: -0.51; z-score, replicate A: -0.43; z-score, replicate B: -0.41; z-score, replicate C: -0.69; call: inactive

For PLEKHA3 (GeneID 65977) [SID134310393], what does the deposit list?
mean z-score: 0.21; z-score, replicate A: 0.07; z-score, replicate B: 0.23; z-score, replicate C: 0.34; call: inactive
